According to PMC7864571:
For at least one entry, the source does not settle the construct or the ends of the probe. At least one verdict was read from the data and is not stated in words by the source. Protein sequences can lack the tags named with them.

Molecular target: T1, NXF1(RRM-LRR) (UniProt Q9UBU9)
T1 sequence (looked up): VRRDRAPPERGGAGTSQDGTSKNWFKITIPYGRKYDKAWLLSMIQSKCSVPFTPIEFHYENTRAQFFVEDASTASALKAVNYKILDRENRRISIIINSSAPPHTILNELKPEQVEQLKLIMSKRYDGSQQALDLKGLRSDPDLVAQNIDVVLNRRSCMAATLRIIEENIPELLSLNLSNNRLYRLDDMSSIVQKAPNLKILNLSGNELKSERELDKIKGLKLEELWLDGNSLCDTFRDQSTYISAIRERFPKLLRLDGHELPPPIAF
Test: EMSA
Conditions: NXF1 (RRM-LRR) alone, 100 nM RNA, 10 mM Tris pH 8.0, 100 mM NaCl, 0.5 mM TCEP, 8% glycerol, 0.5 U/ul SUPERase-In, room temperature 10 min, 5% native PAGE, recombinant protein, residues 96-362, protein details: GST tag removed by TEV, label: 5' Alexa Fluor 488

UUUUUUUUUUUUUUU [poly(U) 15-mer RNA]: binds.
